Anti-infective test results gathered from many reports (values: NIAID ChemDB through PubChem).

Shared fields: tests in culture; species: HIV-1; method: p24; read-out: fold resistance

Fold resistance has wild type as its base. Conditions beyond the fields shown may differ between rows. An empty or dashed field is not shown.

compound	mutations	strain or isolate	cells	result
CCN1c2ncc(CCOc3ccc(C(=O)O)c4c3CCCC4)cc2C(=O)N(C)c2ccc(OC)nc21	RT-K103N Y181C		C8166	1
Nc1nc(=O)n([C@H]2C=C[C@@H](CO)O2)cc1F	RT-M41L D67N K70R T215Y K219Q	XM-AZT-resistant	PBMC	0.6
CCN1c2ncc(CCOc3ccc(-n4cc(C(=O)O)nn4)cc3C)cc2C(=O)N(C)c2cccnc21	RT-K103N Y181C		C8166	1
CCN1c2ncc(CCOc3ccc(CC(=O)O)c4ccccc34)cc2C(=O)N(C)c2cccnc21	RT-K103N Y181C		C8166	1
CCN1c2ncc(CCOc3ccc(C(=O)NS(C)(=O)=O)cc3C)cc2C(=O)N(C)c2cccnc21	RT-K103N Y181C		C8166	>1
CCN1c2ncc(CCOc3ccc4cc(CC(=O)NN)ccc4c3)cc2C(=O)N(C)c2cccnc21	RT-K103N Y181C		C8166	1
CCN1c2ncccc2NC(=O)c2cc(CCOc3ccc(-c4ccc(CC(=O)O)cc4)cc3C)cnc21	RT-K103N Y181C		C8166	>1
CC(C)[C@H](NC(=O)OCc1ccccn1)C(=O)N[C@@H](Cc1ccccc1)[C@@H](O)C[C@H](Cc1ccccc1)NC(=O)OCc1cccnc1	PR-L63P V82T	NL4-3	MT-4	1.875
C/C=C/CSc1cc(NC(=S)c2ccsc2C)ccc1Cl	RT-D67N K70R Y181C T215Y K219Q	4XAZT+Y181C (RT D67N K70R Y181C T215Y K219Q)	CEM + CEM-SS	2.5
CCN1c2ncc(CCOc3ccc(-c4ccc(C(=O)O)cc4)c(C)c3)cc2C(=O)N(C)c2cccnc21	RT-K103N Y181C		C8166	>1
Nc1nc(NC2CC2)c2ncn([C@H]3C=C[C@@H](CO)C3)c2n1	RT-M41L D67N K70R T215Y K219Q	XM-AZT-resistant	MT-4	2.2
CCN1c2ncc(CCOc3ccc(CC(=O)O)c4c3CCCC4)cc2C(=O)N(C)c2ccc(F)nc21	RT-K103N Y181C		C8166	1
CCc1cc(=O)c2ccc3c(c2o1)[C@@H](OC(=O)C12CCC(C)(C(=O)O1)C2(C)C)[C@@H](OC(=O)C12CCC(C)(C(=O)O1)C2(C)C)C(C)(C)O3	RT-E138K	NL4-3	MT-4	>714
CCN1c2ncc(CCOc3ccc(C(=O)Nc4ccccc4C(=O)O)cc3C)cc2C(=O)N(C)c2cccnc21	RT-K103N Y181C		C8166	>1
CCN1c2ncc(CCOc3ccc(CC(=O)O)c4c3CCCC4)cc2C(=O)N(C)c2ccc(Cl)nc21	RT-K103N Y181C		C8166	1

2 of the rows above, restated:

{"compound": "CCN1c2ncc(CCOc3ccc(CC(=O)O)c4c3CCCC4)cc2C(=O)N(C)c2ccc(Cl)nc21", "mutations": "RT-K103N Y181C", "cells": "C8166", "result": "1"}
{"compound": "CCN1c2ncc(CCOc3ccc(C(=O)Nc4ccccc4C(=O)O)cc3C)cc2C(=O)N(C)c2cccnc21", "mutations": "RT-K103N Y181C", "cells": "C8166", "result": ">1"}